Screening data, single-dose tests

Mtb glucose medium: 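Growth of Mycobacterium tuberculosis over 3 days (7H9 medium with glucose and tyloxapol); the read-out is not stated. Tested at 500 µM. Direction is inferred from retests: higher values go with more growth inhibition. Size under these conditions: about 18,000 compounds, about 1,400 of them at 50% or above in at least one test.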
Mtb cholesterol medium: 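Whole-cell growth test on Mycobacterium tuberculosis, read after 4 days in a medium based on cholesterol and the lipid DPPC; the read-out is not stated. Compounds at 500 µM. Higher reads as more growth inhibition (inferred: compounds with an IC50 in retests scored well above the rest). About 18,000 compounds were tested under these conditions; 5% (about 900) showed 50% or more at least once.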

The filed quantity is “Percent Effect” (%). The controls that fix the scale are not given in the record; negative values are as filed. The entries come from a sample that favours strong results.

- CN(CCc1ccncc1)Cc1ccc(N(C)C)nc1 : Mtb glucose medium: 9.609%
- CN(C)Cc1ccccc1CNC(=O)C1CCC1 : Mtb cholesterol medium: -2.857%
- CC1(C)CCC(CO)O1 (configuration not stated) : Mtb glucose medium: 10.61%
- CCC1CN(C(=O)[C@H](O)c2ccccc2Cl)CCO1 (some centres not stated) : Mtb glucose medium: 23.18%
- CS(=O)(=O)c1nccn1CCN1CCCCC1 : Mtb glucose medium: -17.25%
- CCN(CCO)C(=O)c1ccn(-c2ccccc2F)n1 : Mtb glucose medium: 26.88%; Mtb cholesterol medium: 13.07%
- Cc1nnnn1CCC(=O)NCc1cn2ccsc2n1 : Mtb cholesterol medium: 16.46%
- NC1CCN(CCC(=O)Nc2ccccc2)CC1 : Mtb glucose medium: 17.02%
- COCC(NC(=O)c1c(C)cc(C)cc1C)C(N)=O (configuration not stated) : Mtb cholesterol medium: -4.604%
- CN1CCCN(C(=O)C2COc3ccccc3C2)CC1 (configuration not stated) : Mtb glucose medium: 18%
- Cc1cnc(C(=O)Nc2ccn(C)n2)cn1 : Mtb glucose medium: -1.96%
- Cn1cc(Br)c(=O)c(NC(=O)c2cccc(C#N)c2)c1 : Mtb cholesterol medium: -8.72%
- Cc1nc[nH]c1CN1CCC(CN2CCOCC2)CC1 : Mtb glucose medium: 7.049%
- O=C(CCn1cnnc1)Nc1cccc(F)c1 : Mtb glucose medium: 18%
- CC(C)C1c2nccn2CCCN1C(=O)c1cocn1 (configuration not stated) : Mtb cholesterol medium: -15.1%
- CC(CO)NC(=O)CN(c1cccc(F)c1)S(C)(=O)=O (configuration not stated) : Mtb glucose medium: 0.6861%
- Cc1cnc(C(=O)c2ncc(C)[nH]2)[nH]1 : Mtb cholesterol medium: 37.67%
- Cc1nc(CNc2ccn(-c3ncccc3Cl)n2)no1 : Mtb glucose medium: -8.727%
- CCC(CC#N)NCc1cccnc1C (configuration not stated) : Mtb glucose medium: -1.293%
- Cc1[nH][nH]c(=O)c1CCO : Mtb cholesterol medium: 1.001%
- CCNC1CCCc2cccnc21 (configuration not stated) : Mtb glucose medium: -1.045%
- O[C@@H]1CNC[C@H]1n1ccnn1 : Mtb glucose medium: 90.37%; Mtb cholesterol medium: 87.43%
- O=C(C1CCOCC1)N1CCC(Oc2ccccc2)C1 (configuration not stated) : Mtb glucose medium: 22.62%; Mtb cholesterol medium: 30.49%
- COc1cc(OC)cc(C(=O)NCC(C)CN(C)C)c1 (configuration not stated) : Mtb cholesterol medium: 5.274%
- CC(C)N1CCN(C2CCNCC2)CC1 : Mtb glucose medium: 1.279%
- Nc1ncccc1C(=O)NC1CCCCC1 : Mtb glucose medium: 0.8156%
- Cc1cc2nc(CN)[nH]c2cc1C : Mtb glucose medium: 61.26%; Mtb cholesterol medium: 50.31%
- Cc1cc(N2CCNCC2)nc2ccccc12 : Mtb glucose medium: 54.21%; Mtb cholesterol medium: 57.97%
- CC(C)(O)Cn1nnc(-c2cccs2)n1 : Mtb glucose medium: 68.57%; Mtb cholesterol medium: 64.6%

The values are deposited in ChEMBL (CHEMBL3988442, “University of Dundee, Small-Polar-MMV Screening Library” (2021)).